One assay addresses GX/P2V/2017 假病毒 S蛋白 (sarbecovirus GX/P2V/2017). Put plainly: cell-based or functional assay.
The next assay concerns the target GX/P2V/2017 RBD蛋白 (sarbecovirus GX/P2V/2017). Briefly: SPR, Biacore […]; 74 captured on protein A chip, RBD as analyte. A general note: In SPR one partner is held on a chip, and binding of the other changes the refractive index at the surface.

Where only a bound is given, the exact number is not on record here.

The Kd is a measure of binding affinity in units of concentration. One may read the koff as a measure of how fast the partners let go of each other. Low values mean slow dissociation, high ones fast dissociation. The kon is the second-order rate constant of association. A low value points to slow association.

B1: 沙贝病毒广谱人源中和抗体74 (antibody, V domains shown)
VH: QVQLVQSGAQLKKPGESLKISCKGSGYNFSRYWIAWVRHMPGKGLEVMGIIYPDDSDTRYSPSVRGQVTISADKSTSIVYLQWSSLKASDTGIYYCARFGAGMTGMPRYFDTTRWFDPWGQGTQVTVSS
VL: QSVLTQPPSVSGAPGQRVTISCLGGSSNIGAGYDVHWYQHLPGAAPKLLISGNSNRPSGVPARFSGSKSGTSASLAITGLQAEDEADYYCQSYDNDLSQVFGGGTKLTVLG
As to B1, the “IC50, 假病毒中和” value with GX/P2V/2017 假病毒 S蛋白 turned out to be 0.39 µg/mL. In the assay with GX/P2V/2017 RBD蛋白, the Kd was less than 0.0227 nM, the koff turned out to be 9.83e-07 s⁻¹ and the kon is 440000 M⁻¹ s⁻¹.

These data come from patent publication CN115850461A (INST MICROBIOLOGY CAS, dated 2023).
